{"source": "patent US20240122867A1", "about": "“CORONAL PROTEIN-COATED NANOPARTICLES AND USES THEREOF” (UNIVERSITY OF CENTRAL FLORIDA RESEARCH FOUNDATION, INC., priority 2021, published 2024)", "molecules": {"B1": {"name": "Phosphatidylinositide phosphatase SAC2 (protein, UniProt Q8CDA1 1-1132, looked up)", "Phosphatidylinositide …": "MELFQAKDHYILQQGERALWCSRRDGGLQLRPATDLLLAWNPICLGLVEGVIGKIQLHSDLPWWLILIRQKALVGKLPGDHEVCKVTKIAVLSLSEMEPQELELELCKKHHFGINKPEKIIPSPDDSKFLLKTFTNIKSNVSAPNKKKVKESKEKEKLERRLLEELLKMFMDSESFYYSLTYDLTNSVQRQSTGERDGRPLWQKVDDRFFWNKYMIQALTEIGTPDVDFWIIPIIQGFVQIEELVVNYNESSDDDKSSPETPPQDSTCVDDIHPRFLVALISRRSRHRAGMRYKRRGVDKNGNVANYVETEQLIHVHHHTLSFIQTRGSVPVFWSQVGYRYNPRPRLDKSEKETVDCFCAHFEEQLKIYKKQVIVNLVDQAGREKIIGDAYLKQVLLFNNPKLTYVSFDFHEHCRGMKFENVQTLTDAIHDIIIDMKWCWVDQAGVICKQEGIFRVNCMDCLDRTNVVQAAIARVVMEQQLKKLGVMPPEQPLPVKCNRTYQIMWANNGDSISRQYAGTAALKGDFTRTGERKLAGVMKDGVNSANRYYLSRFKDAYRQAVIDLMQGVPVTEDLYSIFTKEKEHEALHKESQRSHQELISQLLQSYMQLLLPGDEKFHGGWALVDCDPSLTDAAHRDVEVLLLLSNAAYYVAYYDDEVDKVNQYQRLGLEDLERIEIGPEPTLFGKPKFSCMRLHYRCKEAGGYFHTLRAVPRSPEEDGKDTLQCIAEMLQITKQAMGLDVPIIEKKLERKSSKPHEDIIGIRSQNQGSLAQGKSFLMSKFSSLNQKVKQTKSNVNIGNLRKLGNFTKPEMKVNFLKPNLKVNLWKSDSSLETMENPGVMGNKVQGESDGDISSDNDSYHSDEFLTNSKSEEDKQLANSLESVGPIDYILPSCGIIVSAPRLGSRSQSASSIDVSTHAPSEAAAGPGSELGKGLESPLKKSPSADSIHTRTGFTKPMDVYCQRFVQDAQNKMNDLSEIRSVAQKSEEGSHKTNRVSNEETQSEPMGQTPPRPSQLNVSCSVAGPPFLSVEPVHSVLSQKTPSSGSSLLELEAGLCVTPSSESSSSRAVSPFAKIRSSMVQVANITQAGLTHGINLAVAKVQKSPAEPEAVNEIQQNELKNMFTQCQTRIIQI"}, "B2": {"name": "Serine protease inhibitor A3G (protein, UniProt Q5I2A0 1-440, looked up)", "Serine protease inhibitor A3G": "MAGVSPAVFGCPDVTLGRNTAVREVQENVTSVDSLTLVSSNTDFAFSLYRKLVLKNPDENVVFSPFSICTALALLSLGAKSNTLKEILEGLKFNLTETPEPDIHQGFRYLLDLLSQPGNQVQISTGSALFIEKHLQILAEFKEKARALYQAEAFTADFQQPLKATKLINDYVSNHTQGKIKELISGLKESTLMVLVNYIYFKGKWKNPFDPNDTFKSEFYLDEKRSVIVSMMKTGYLTTPYFRDEELSCTVVELKYTGNASAMFILPDQGRMQQVEASLQPETLRKWKNSLKPRMIHELRLPKFSISTDYSLEHILPELGIREVFSTQADLSAITGTKDLRVSQVVHKAVLDVAETGTEAAAATGMAGVGCCAVFDFLEIFFNRPFLMIISDTKAHIALFMAKVTNPERSMNFPNGEGASSQRLESKRLCFGDPLCLIGQ"}, "B3": {"name": "Alpha-1-antitrypsin 1-2 (protein, UniProt P22599 25-413, looked up)", "Alpha-1-antitrypsin 1-2": "EDVQETDTSQKDQSPASHEIATNLGDFAISLYRELVHQSNTSNIFFSPVSIATAFAMLSLGSKGDTHTQILEGLQFNLTQTSEADIHKSFQHLLQTLNRPDSELQLSTGNGLFVNNDLKLVEKFLEEAKNHYQAEVFSVNFAESEEAKKVINDFVEKGTQGKIVEAVKELDQDTVFALANYILFKGKWKKPFDPENTEEAEFHVDKSTTVKVPMMMLSGMLDVHHCSILSSWVLLMDYAGNASAVFLLPEDGKMQHLEQTLNKELISKILLNRRRRLVQIHIPRLSISGDYNLKTLMSPLGITRIFNNGADLSGITEENAPLKLSKAVHKAVLTIDETGTEAAAATVFEAVPMSMPPILRFDHPFLFIIFEEHTQSPIFVGKVVDPTHK"}, "B4": {"name": "Neurofilament heavy polypeptide (protein, UniProt P19246 1-1090, looked up)", "Neurofilament heavy …": "MMSFGSADALLGAPFAPLHGGGSLHYSLSRKAGPGGTRSAAGSSSGFHSWARTSVSSVSASPSRFRGAASSTDSLDTLSNGPEGCVVAAVAARSEKEQLQALNDRFAGYIDKVRQLEAHNRSLEGEAAALRQQQAGRAAMGELYEREVREMRGAVLRLGAARGQLRLEQEHLLEDIAHVRQRLDEEARQREEAEAAARALARFAQEAEAARVELQKKAQALQEECGYLRRHHQEEVGELLGQIQGCGAAQAQAQAEARDALKCDVTSALREIRAQLEGHAVQSTLQSEEWFRVRLDRLSEAAKVNTDAMRSAQEEITEYRRQLQARTTELEALKSTKESLERQRSELEDRHQADIASYQDAIQQLDSELRNTKWEMAAQLREYQDLLNVKMALDIEIAAYRKLLEGEECRIGFGPSPFSLTEGLPKIPSISTHIKVKSEEMIKVVEKSEKETVIVEGQTEEIRVTEGVTEEEDKEAQGQEGEEAEEGEEKEEEEGAAATSPPAEEAASPEKETKSRVKEEAKSPGEAKSPGEAKSPAEAKSPGEAKSPGEAKSPGEAKSPAEPKSPAEPKSPAEAKSPAEPKSPATVKSPGEAKSPSEAKSPAEAKSPAEAKSPAEAKSPAEAKSPAEAKSPAEAKSPATVKSPGEAKSPSEAKSPAEAKSPAEAKSPAEAKSPAEVKSPGEAKSPAEPKSPAEAKSPAEVKSPAEAKSPAEVKSPGEAKSPAAVKSPAEAKSPAAVKSPGEAKSPGEAKSPAEAKSPAEAKSPIEVKSPEKAKTPVKEGAKSPAEAKSPEKAKSPVKEDIKPPAEAKSPEKAKSPVKEGAKPPEKAKPLDVKSPEAQTPVQEEAKHPTDIRPPEQVKSPAKEKAKSPEKEEAKTSEKVAPKKEEVKSPVKEEVKAKEPPKKVEEEKTLPTPKTEAKESKKDEAPKEAPKPKVEEKKETPTEKPKDSTAEAKKEEAGEKKKAVASEEETPAKLGVKEEAKPKEKTETTKTEAEDTKAKEPSKPTETEKPKKEEMPAAPEKKDTKEEKTTESRKPEEKPKMEAKVKEDDKSLSKEPSKPKTEKAEKSSSTDQKESQPPEKTTEDKATKGEK"}, "B5": {"name": "Phospholipid transfer protein (protein, UniProt P55065 18-493, looked up)", "Phospholipid transfer protein": "ELPGCKIRVTSAALDLVKQEGLRFLEQELETITIPDVYGAKGHFYYNISDVRVTQLHLISSELHFQPDQDLLLNISNASLGLHFRRQLLYWFLYDGGYINASAEGVSIRTGLQLSQDSSGRIKVSNVSCEASVSKMNMAFGGTFRRMYNFFSTFITSGMRFLLNQQICPVLYHAGTVLLNSLLDTVPVRSSVDDLVGIDYSLLKDPVVSNGNLDMEFRGAFFPLKEDNWSLPNRAVEPQLEDDERMVYVAFSEFFFDSAMESYFQAGALQLTLVGDKVPSDLDMLLRATYFGSIVLLSPTVINSPLKLKLEATSPPRCTIKPSGTTISITASVTITLAPPMLPEVELSKMIMEGRLSAKLTLRGKALRVKLDLRRFQIYSNQSALESLALIPLQAPLKTLLQIGVMPLLNERTWRGVQIPLPEGINFVREVVTNHAGFVTVGADLHFAKGLREVIDKNRPADVAASHVPPPSAAAA"}}, "data": [{"tested_on": "coronal proteins on NPs", "design": "species or system mouse", "conditions": "HBPE-NPs incubated 1 h with IAV day 5 (V5) mouse sera, 20:1 NP:sera, centrifuged and washed", "values": [{"molecule": "B1", "V5 Sera_Nanoparticles Quantitative Value (Normalized Total Spectra)": 1.0879}, {"molecule": "B2", "V5 Sera_Nanoparticles Quantitative Value (Normalized Total Spectra)": 0}, {"molecule": "B3", "V5 Sera_Nanoparticles Quantitative Value (Normalized Total Spectra)": 35.901}, {"molecule": "B4", "V5 Sera_Nanoparticles Quantitative Value (Normalized Total Spectra)": 0}, {"molecule": "B5", "V5 Sera_Nanoparticles Quantitative Value (Normalized Total Spectra)": 0}]}, {"tested_on": "coronal proteins on NPs", "design": "species or system mouse", "conditions": "IAV day 5 (V5) mouse sera alone, no NPs (sera-only control)", "values": [{"molecule": "B1", "V5 Sera Alone (Control) Quantitative Value (Normalized Total Spectra)": 0}, {"molecule": "B2", "V5 Sera Alone (Control) Quantitative Value (Normalized Total Spectra)": 18.505}, {"molecule": "B3", "V5 Sera Alone (Control) Quantitative Value (Normalized Total Spectra)": 58.289}, {"molecule": "B4", "V5 Sera Alone (Control) Quantitative Value (Normalized Total Spectra)": 0.9252}, {"molecule": "B5", "V5 Sera Alone (Control) Quantitative Value (Normalized Total Spectra)": 9.2523}]}]}
